# According to the supplement of paper PMC12350171:
# Shown are results outside the selection of hits, which stands elsewhere.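 The calls were made as follows: active = AUC significantly below DMSO controls by Student t-fit with adjusted P under 0.01; inactive = not significantly reduced.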
# Tests used:
# [1] = tested on: Vibrio cholerae; assay: growth AUC normalised to DMSO control (fraction of control); higher = less growth inhibition, active = hit call of the paper; details: 20 µM
# [2] = tested on: Yersinia pseudotuberculosis; assay: as above; details: 20 µM
smiles,measurement,setting,value
COc1cc(Br)c(C[N+]2(CCOCCC3CCC4CC3C4(C)C)CCOCC2)cc1OC (configuration not stated) [Pinaverium bromide],growth AUC normalised to DMSO control,[1],inactive: 1.01
same,growth AUC normalised to DMSO control,[2],inactive: 1.01
